Assay results from PMC7217864, “Legionella effector MavC targets the Ube2N~Ub conjugate for noncanonical ubiquitination” (Nature Communications, 2020).
Read-outs that look alike come from different tables or passages of the source.

B2: Ube2N (full-length) (enzyme, UniProt P61088 1-152, looked up)
chain: MAGLPRRIIKETQRLLAEPVPGIKAEPDESNARYFHVVIAGPQDSPFEGGTFKLELFLPEEYPMAAPKVRFMTKIYHPNVDKLGRICLDILKDKWSPALQIRTVLLSIQALLSAPNPDDPLANDVAEQWKTNEAQAIETARAWTRLYAMNNI
notes: also called Ubc13

How the values were obtained:
[1] = molecular target: B2; assay: pull-down
[2] = molecular target: GST-MavC_(1–462) (Legionella pneumophila, UniProt Q5ZTL4 1-462); assay: pull-down
[3] = molecular target: Ub–Ube2N, transglutaminase crosslinked product (UniProt P61088 1-152; P0CG48 1-76)
[4] = molecular target: Ubiquitin (wild type) (UniProt P0CG48 1-76)
[5] = molecular target: B2

B1: GST-MavCINS (domain or fragment)
chain: NAPQKYQKIKREEFNPETAEKNKIYLLEDQLVYLDIFGKVIDLGQTSDTCHRLFNAITTPFYQNYILYDEYIDPEESAEEAAMFEMGEIVKAKMKNID
- binding result [1]: binds

Binder: B2
- binding result [2]: binds

B3: C74A-MavC_(1–384) (domain or fragment)
chain: MTTSKLEKTGLHVHEKIKHMVKNYGTMITGIPAEILGQNEAEISVGYVKKMGNMKENIAEVVRKSEMTQPTNSAGKASNEVCDLLLGTEGASEFEKSSYQVLSGDGSNLKGSLPNKNLLVRVEMDRFNAPQKYQKIKREEFNPETAEKNKIYLLEDQLVYLDIFGKVIDLGQTSDTCHRLFNAITTPFYQNYILYDEYIDPEESAEEAAMFEMGEIVKAKMKNIDCWTATHSFTIFVPESDSEDTRTLYPYQAYWTSHTLQQWFSGDKDEKLSRLGIDGYIEKLALLGTTTDSKIRSSIYGELFSPPGKEHVFCTGMNEKFSPLRVKFKVTEVNPEIALQNLEEVQEFIDTNYPGENAKDQCELYKIKAQEAMTKQLEMRLLIE
- binding result [3]: binds
- binding result [4]: binds

B4:  (domain or fragment)
chain: NAPQKYQKIKREEFNPETAEKNKIYLLEDQLVYLDIFGKVIDLGQTSDTCHRLFNAITTPFYQNYILYDEYIDPEESAEEAAMFEMGEIVKAKMKNID
- binding result [5]: binds

B5: MavC insertion domain (MavC_(128–225)), purified (domain or fragment)
chain: NAPQKYQKIKREEFNPETAEKNKIYLLEDQLVYLDIFGKVIDLGQTSDTCHRLFNAITTPFYQNYILYDEYIDPEESAEEAAMFEMGEIVKAKMKNID
- binding result [5]: binds
